Results published in PubChem BioAssay AID720488 (Milwaukee Institute for Drug Discovery, 2013).
The list shows a part of the results, in another mix than the full data. Calls of active or inactive are those of the source.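 Rule for the calls: active = compound fluorescence over control fluorescence at most 0.8, a quencher, or at least a set upper limit, an enhancer; inactive = ratio between 0.8 and the set upper limit.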

assay: fluorescence interference in NS3h DNA assay – biochemical, ChemBridge library, Cy5 readout, artefact control for HCV NS3 helicase inhibitor project (AID 720488); settings: Cy5-dT15 DNA with NS3h, at 100 µM, actives lie on both sides, signal over control mean, under 1 quenches

SMILES | fluorescence interference ratio
CP(=O)(Oc1ccc(Cl)cc1)Oc1ccc(Cl)cc1 | inactive: 0.895
CP(=O)(Oc1ccccc1)Oc1ccccc1 | inactive: 0.901
CP(=O)(Oc1ccccc1F)Oc1ccccc1F | inactive: 0.914
CN(C)CCOC(=O)C(O)(c1ccccc1)c1ccccc1 | active: 1.23
CCc1ccc(OP(C)(=O)O)cc1 | inactive: 1.12
CP(=O)(Oc1ccc(F)cc1)Oc1ccc(F)cc1 | inactive: 1.03
